Like-named read-outs stand apart in the source and are kept apart here.
Tests used:
Test in all cases: biochemical
HLA-DR DRB1*03:01 = HLA-DR DRB1*03:01 (Homo sapiens, UniProt P01903+P01911, A100K/A102G/A103R/A169T/F55Y/I96L/K41T/L162R/M171V/P40S/Q125H/Q178H/Q39Y/R42S/S66N/T106N/T262R/W38E/Y61H); type: binding; settings: read-out: Binding capacity/IC50 (nM) DRB1*03:01
[1] = target: HLA-DQ DQA1*02:01/DQB1*02:02 (Homo sapiens, UniProt P01909+P01920, A45G/A70V/C70K/D167G/D89A/E106A/E183D/E77G/E98D/F237L/F77L/G63E/H199R/I129T/K197E/L107V/L178F/L74F/N214S/P84L/P87L/Q57E/Q76R/R75H/S185I/S97I/T103K/T109R/T172A/T60S/V73L/V78E/V99I/Y48F/Y58L/Y62S/Y69I/Y79F); type: binding; settings: read-out: Binding capacity/IC50 (nM) DQA1*02:01 DQB1*02:02
[2] = target: HLA-DQ DQA1*03:01/DQB1*03:01 (Homo sapiens, UniProt P01909+P01920, A209T/C70Q/DUP78-78/E183D/F237L/G63E/I129T/K197E/L178F/L74F/L98V/Q57E/Q76R/S185I/S97I/T49S/V73L); type: binding
[3] = target: HLA-DQ DQA1*03:01/DQB1*03:02 (Homo sapiens, UniProt P01909+P01920, A209T/A45G/C70Q/D89A/DUP78-78/E183D/E77G/F237L/G63E/H199R/I129T/K197E/L178F/L74F/L98V/Q57E/Q76R/S185I/S97I/T217I/T49S/V73L/Y58L); type: binding; settings: read-out: Binding capacity/IC50 (nM) DQA1*03:01 DQB1*03:02
[4] = target: HLA-DQ DQA1*01:02/DQB1*06:02 (Homo sapiens, UniProt P01909+P01920, A157G/A45G/C70R/E118A/E183D/E77G/F83G/G63E/H151Q/H199R/H252R/H253Q/I129T/I235V/I88M/INS77G/K197Q/L117V/L119F/L178F/L71W/L74F/L85Q/L91A/L98M/N214S/P87R/Q116E/Q76K/R102G/R240Q/R75S/R78G/S102Y/S185I/S41F/S97I/T121G/T122I/T172A/T86R/V229M/V68A/V73E/Y34C/Y41F/Y58L); type: binding
[5] = target: HLA-DQ DQA1*05:01/DQB1*02:01 (Homo sapiens, UniProt P01909+P01920, A45G/A70V/D89A/E106A/E77G/E98D/H199R/L107V/N214S/P84L/P87L/T103K/T109R/T172A/T60S/V78E/V99I/Y58L/Y62S/Y69I/Y79F)
[6] = target: HLA-DQ DQA1*04:01/DQB1*04:02 (Homo sapiens, UniProt P01909+P01920, A45G/E106S/E183D/E77G/E98D/H199R/I129T/K197E/L107V/L178F/L91T/P87R/P88L/R102E/S185I/S97I/T103D/T217I/V99I/Y41F/Y58G)
[7] = target: HLA-DQ DQA1*01:01/DQB1*05:01 (Homo sapiens, UniProt P01909+P01920, A157S/A45G/A70V/C70R/D89V/E106S/E118A/E183D/E77G/F83G/G63E/H151Q/H199R/H252R/H253Q/I129T/I235V/I88M/INS77G/K197Q/L107V/L117V/L119Y/L178F/L71W/L74F/L85Q/L91A/L98M/M46L/N214S/P87R/Q116E/Q256R/Q57E/Q76K/R102G/R240Q/R75S/R78G/S102Y/S185I/S41F/S97I/T103A/T109R/T121G/T122I/T172A/T86R/V148I/V68A/V73E/Y34C/Y58G/Y62H)
[8] = target: HLA-DQ DQA1*01:02/DQB1*05:02 (Homo sapiens, UniProt P01909+P01920, A157S/A45G/A70V/C70R/D89S/E106S/E118A/E183D/E77G/F83G/G63E/H151Q/H199R/H252R/H253Q/I129T/I235V/I88M/INS77G/K197Q/L107V/L117V/L119Y/L178F/L71W/L74F/L85Q/L91A/L98M/M46L/N214S/P87R/Q116E/Q158H/Q256R/Q76K/R102G/R240Q/R75S/R78G/S102Y/S185I/S41F/S97I/T103A/T109R/T121G/T122I/T172A/T86R/V148I/V229M/V68A/V73E/Y34C/Y58G/Y62H)
[9] = target: HLA-DQ DQA1*01:04/DQB1*05:03 (Homo sapiens, UniProt P01909+P01920, A157S/A221T/A45G/A70V/C70R/D25G/E106S/E118A/E183D/E77G/F83G/G63E/H151Q/H199R/H252R/H253Q/I129T/I235V/I88M/INS77G/K197Q/L107V/L117V/L119Y/L178F/L71W/L74F/L85Q/L91A/L98M/M46L/N214S/P87R/Q116E/Q256R/Q57E/Q76K/R102G/R240Q/R75S/R78G/S102Y/S185I/S41F/S97I/T103A/T109R/T121G/T122I/T172A/T86R/V148I/V68A/V73E/Y34C/Y58G/Y62H)
[10] = target: HLA-DQ DQA1*01:03/DQB1*06:03 (Homo sapiens, UniProt P01909+P01920, A157G/A45G/C70R/E118A/E183D/E77G/F83G/G63E/H199R/H252R/H253Q/I129T/I235V/I88M/INS77G/K197Q/L117V/L119F/L178F/L71W/L74F/L85Q/L91A/L98M/N214S/P87R/Q116E/Q76K/R102G/R240Q/R64K/R75S/R78G/S102Y/S152A/S185I/S41F/S97I/T121G/T122I/T172A/T86R/V68A/V73E/Y34C/Y48F/Y58L/Y62H)
[11] = read-out: Binding capacity/IC50 (nM) DQA1*03:01 DQB1*03:01
[12] = read-out: Binding capacity/IC50 (nM) DQA1*01:02 DQB1*06:02

Amino acid sequences for entries named in this document (tags omitted). A change or cut given only in a name is not applied to a line headed by its entry. Residues count along the entry.
UniProt P01903, 26-254 limits assumed: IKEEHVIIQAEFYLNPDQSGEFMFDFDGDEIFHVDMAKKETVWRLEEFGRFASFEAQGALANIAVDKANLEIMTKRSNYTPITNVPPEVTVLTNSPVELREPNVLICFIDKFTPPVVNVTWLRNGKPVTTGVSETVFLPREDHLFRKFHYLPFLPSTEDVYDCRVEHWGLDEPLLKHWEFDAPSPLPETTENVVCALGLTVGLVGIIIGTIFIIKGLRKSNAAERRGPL

| Structure (SMILES) | IC50 (HLA-DR DRB1*03:01) | IC50 [1] | IC50 [2, 11] | IC50 [3] | IC50 [4, 12] | IC50 [5] | IC50 [6] | IC50 [7] | IC50 [8] | IC50 [9] | IC50 [10] | IC50 [4] | IC50 [2] |
| --- | --- | --- | --- | --- | --- | --- | --- | --- | --- | --- | --- | --- | --- |
| CC[C@H](C)[C@H](NC(=O)[C@@H]1CCCN1C(=O)[C@H](CCC(=O)O)NC(=O)[C@@H](N)CCCCN)C(=O)N[C@H](C(=O)NCC(=O)N[C@@H](C)C(=O)N[C@@H](CCC(=O)O)C(=O)N[C@H](C(=O)N[C@@H](Cc1ccccc1)C(=O)N[C@@H](Cc1ccc(O)cc1)C(=O)N[C@H](C(=O)N[C@@H](CC(=O)O)C(=O)NCC(=O)N[C@@H](C)C(N)=O)C(C)C)[C@@H](C)O)C(C)C [RT(431-445)] | 107 nM | 595 nM | 54 nM | 1580 nM | 968 nM | 107 nM | 328 nM | 1150 nM | 4620 nM | 624 nM | 301 nM | – | – |
| CC[C@H](C)[C@H](NC(=O)CNC(=O)[C@H](CCCCN)NC(=O)[C@H](Cc1c[nH]cn1)NC(=O)[C@H](C)NC(=O)[C@@H]1CCCN1C(=O)[C@@H](NC(=O)[C@H](Cc1c[nH]c2ccccc12)NC(=O)[C@H](CO)NC(=O)[C@H](CC(C)C)NC(=O)[C@H](Cc1ccc(O)cc1)NC(=O)[C@@H](NC(=O)[C@H](CCCCN)NC(=O)[C@H](CCC(=O)O)NC(=O)[C@@H](N)CCCCN)C(C)C)C(C)C)C(=O)NCC(=O)NCC(=O)N[C@@H](CC(N)=O)C(=O)N[C@@H](CCC(=O)O)C(N)=O [RT(528-546)] | – | 21400 nM | 70 nM | > 30000 nM | – | 3790 nM | 9870 nM | 7070 nM | > 30000 nM | 2750 nM | 219 nM | 451 nM | – |
| CSCC[C@H](NC(=O)[C@H](CCCCN)NC(=O)[C@H](C)NC(=O)[C@H](Cc1ccc(O)cc1)NC(=O)[C@H](CCCCN)NC(=O)CNC(=O)[C@@H](NC(=O)[C@H](CCCCN)NC(=O)[C@H](CC(C)C)NC(=O)[C@H](CC(N)=O)NC(=O)[C@H](CCCCN)NC(=O)[C@H](Cc1ccccc1)NC(=O)[C@@H]1CCCN1C(=O)[C@H](CCC(=O)O)NC(=O)[C@@H](N)CCC(N)=O)[C@@H](C)O)C(N)=O [RT(343-357)] | – | > 30000 nM | 4780 nM | > 30000 nM | > 30000 nM | > 30000 nM | > 30000 nM | > 30000 nM | > 30000 nM | > 30000 nM | 5790 nM | – | – |
| CC[C@H](C)[C@H](NC(=O)[C@H](C)NC(=O)[C@H](CCC(N)=O)NC(=O)[C@H](Cc1c[nH]cn1)NC(=O)[C@@H](NC(=O)[C@H](CCSC)NC(=O)[C@H](CCC(N)=O)NC(=O)CNC(=O)[C@H](CCC(N)=O)NC(=O)[C@H](CC(C)C)NC(=O)[C@H](CC(N)=O)NC(=O)[C@H](CCC(N)=O)NC(=O)[C@@H](NC(=O)[C@@H](NC(=O)[C@@H]1CCCN1C(=O)[C@H](Cc1ccc(O)cc1)NC(=O)[C@@H](N)CC(N)=O)[C@@H](C)CC)C(C)C)C(C)C)C(=O)N[C@@H](CO)C(=O)N1CCC[C@H]1C(=O)N[C@@H](CCCNC(=N)N)C(N)=O [p17(131-132)/p24(1-18)] | 3350 nM | 26400 nM | – | 9340 nM | 852 nM | 5140 nM | 6100 nM | 599 nM | 265 nM | 4000 nM | 77 nM | – | 228 nM |

— article PMC3445454, “Broad and Cross-Clade CD4^+ T-Cell Responses Elicited by a DNA Vaccine Encoding Highly Conserved and Promiscuous HIV-1 M-Group Consensus Peptides” (PLoS ONE, 2012)
